Compound potency records, mixed from different reports. Data source: NIAID ChemDB in PubChem.

Common to all: tests in culture

Zone: diameter of growth inhibition. MIC50, MIC90 and the like: level of inhibition, or share of isolates inhibited. An empty or dashed field is not shown. Neighbouring rows are from separate reports. ECn is the concentration giving n% inhibition of infection, replication or growth. Percent inhibition refers to the dose given; in toxicity tests it is the harm to the cells.

SMILES	method	strain or isolate	setting	agent	endpoint	tested at	value
CN(C)c1ccc(C=NNC(=O)c2snnc2C(F)(F)F)cc1	agar diffusion / agar	NCIM 3462	-	Candida rugosa	zone	100 µg/mL	0 mm
C=CC(C)(C)c1cc(C2CC(=O)c3c(cc(O)c(CC=C(C)C)c3O)O2)c(O)cc1O	agar diffusion / agar	hemoculture isolate 35202	-	Candida glabrata	zone	2 mg/mL	11 mm
CCOc1ccc2nc3cc(N=C4NC(=O)/C(=C\c5ccc([N+](=O)[O-])o5)S4)ccc3c(N)c2c1	broth dilution	ATCC 8614	-	Candida kefyr	MIC	-	16.5 µg/mL
CC(C)(O)c1cn(-c2ccc3ccccc3c2)nn1	broth dilution	URM 4387	-	Candida albicans	inhibition	2048 µg/mL	0%
O=C1C2=C(OC(CI)C2)C(=O)c2ccccc21	broth dilution	Clinical isolate	-	Candida tropicalis	MIC	-	16 µg/mL
C[C@@H]1CC(=O)N(CCCCc2ccccc2)C1=O	broth dilution / turbidity	CCC 124-2000	-	Candida parapsilosis	MIC	-	62.5 µg/mL
O/N=C\c1ccccc1	-	-	-	Candida famata	MIC	-	4130 µM
OC(CCn1ccnc1)c1cccc(C(O)c2ccc(Cl)c(Cl)c2)c1	broth dilution	RTCC 1019	-	Candida kefyr	MIC	-	4 µg/mL
CC(C)(O)c1cn(-c2ccccc2)nn1	broth dilution	URM 933	-	Candida tropicalis	inhibition	2048 µg/mL	0%
Clc1ccc(C(c2ccccc2)n2nnc3ccccc32)cc1	broth dilution	-	-	Candida dubliniensis	MFC	-	>256 µg/mL
Clc1ccccc1C(c1ccccc1)(c1ccccc1)n1ccnc1	broth dilution	40 isolates	pH 5	Candida glabrata	EC90	-	8 µg/mL
O=C(CCn1ccnc1)c1cccc(C(O)c2ccc(Br)cc2)c1	broth dilution	RTCC1248	-	Candida guilliermondii	MIC	-	64 µg/mL
CCCCCOc1ccc(-c2cc(-c3ccc(C(=O)N[C@H]4C[C@@H](O)[C@@H](O)NC(=O)[C@@H]5[C@@H](O)[C@@H](C)CN5C(=O)[C@H]([C@H](O)CC(N)=O)NC(=O)[C@H]([C@H](O)[C@@H](O)c5ccc(O)c(OS(=O)(=O)O)c5)NC(=O)[C@@H]5C[C@@H](O)CN5C(=O)[C@H]([C@@H](C)O)NC4=O)cc3)no2)cc1	broth dilution	fluconazole-sensitive	-	Candida spp.	MIC90	-	1 µg/mL
CC(=NNC(=O)c1snnc1C(F)(F)F)c1ccccc1	agar diffusion / agar	NCIM 3462	-	Candida rugosa	zone	100 µg/mL	0 mm
O/N=C\c1cccs1	-	-	-	Candida famata	MIC100	-	3930 µM
C=CCc1ccc(O)c(OC)c1	turbidity	2857	-	Candida tropicalis	MIC90	-	500 µg/mL
CC(=O)N1CCN(c2ccc(OC[C@H]3CO[C@](Cn4ccnc4)(c4ccc(Cl)cc4Cl)O3)cc2)CC1	broth dilution	40 isolates	pH 7	Candida glabrata	MIC	-	0.06 µg/mL
O=C(CCn1ccnc1)c1cccc2ccccc12	broth dilution	RTCC 1377	-	Candida guilliermondii	MIC	-	64 µg/mL
Clc1ccc(C(c2ccccc2)n2cncn2)cc1	broth dilution	-	-	Candida dubliniensis	MFC	-	64 µg/mL
Nc1ncccc1-c1cc(Cc2ccc(COc3ccccn3)cc2)no1	broth dilution	8655	-	Candida glabrata	MIC	-	0.03 µg/mL
COc1ccc(/C=N/O)cc1	-	-	-	Candida lipolytica	MIC100	-	6620 µM
CC[C@@H]([C@H](C)O)n1ncn(-c2ccc(N3CCN(c4ccc(OC[C@@H]5CO[C@@](Cn6cncn6)(c6ccc(F)cc6F)C5)cc4)CC3)cc2)c1=O	broth dilution	8663	-	Candida tropicalis	MIC	-	0.03 µg/mL
O=C(c1ccccc1)C(c1ccccc1)n1ccnc1	broth dilution	-	-	Candida dubliniensis	MFC	-	256 µg/mL
Nc1ncccc1-c1cc(Cc2ccc(COc3ccccn3)cc2)no1	broth dilution	fluconazole-sensitive	-	Candida spp.	MIC50	-	<0.008 µg/mL
COc1ccc(C(c2ccc(OC)cc2)n2cncn2)cc1	broth dilution	-	-	Candida parapsilosis	MFC	-	>256 µg/mL
C[C@@H]1CC(=O)N(Cc2ccccc2)C1=O	broth dilution / turbidity	CCC 134-2000	-	Candida lusitaniae	MIC	-	31.3 µg/mL
C[C@@H](c1ncncc1F)[C@](O)(Cn1cncn1)c1ccc(F)cc1F	broth dilution	40 isolates	pH 6	Candida glabrata	MIC	-	2 µg/mL
C[C@@H]1[C@H](O)[C@@H](C)/C=C/C=C/C=C/C=C/C=C/C=C/C=C/[C@H](O[C@@H]2O[C@H](C)[C@@H](O)[C@H](N)[C@@H]2O)C[C@@H]2O[C@](O)(C[C@@H](O)C[C@@H](O)[C@H](O)CC[C@@H](O)C[C@@H](O)CC(=O)O[C@H]1C)C[C@H](O)[C@H]2C(=O)O	agar diffusion / agar	NCIM 3462	-	Candida rugosa	zone	100 µg/mL	21 mm
CC1C(=O)N(c2ccccc2)C(=O)C1C	broth dilution / turbidity	CCC 134-2000	-	Candida lusitaniae	MIC	-	62.5 µg/mL
O=C1S/C(=C\c2ccoc2)C(=O)N1CC(O)(Cn1nccn1)c1ccc(F)cc1F	-	Fluconazole-resistant 805	-	Candida colliculosa	MIC80	-	37 µg/mL
O=C(NN=Cc1ccc(F)cc1)c1snnc1C(F)(F)F	agar diffusion / agar	NCIM 3462	-	Candida rugosa	zone	100 µg/mL	0 mm
O=C(CCn1ccnc1)c1cccc(C(O)c2ccc(Cl)c(Cl)c2)c1	broth dilution	RTCC1248	-	Candida guilliermondii	MIC	-	32 µg/mL
O/N=C\c1ccc(F)cc1	-	-	-	Candida famata	MIC	-	3600 µM
Nc1scc2c1c(=O)oc1ccccc12	broth dilution	-	-	Candida guilliermondii	MIC	-	64 µg/mL
Clc1ccc(COC(Cn2ccnc2)c2ccc(Cl)cc2Cl)c(Cl)c1	broth dilution	40 isolates	pH 7	Candida glabrata	MIC	-	0.03 µg/mL
O/N=C\c1ccccc1O	-	-	-	Candida famata	MIC100	-	3600 µM
Cc1ccc(-n2cc(C(C)(C)O)nn2)cc1C	broth dilution	URM 4261	-	Candida parapsilosis	inhibition	2048 µg/mL	0%
O=C(NN=Cc1ccccc1)c1snnc1C(F)(F)F	agar diffusion / agar	NCIM 3462	-	Candida rugosa	zone	100 µg/mL	0 mm
COc1ccc(C(c2ccc(OC)cc2)n2ccnc2)cc1	agar	-	-	Candida dubliniensis	MIC90	-	>256 µg/mL
CC(C)(O)c1cn(-c2cccc3ccccc23)nn1	broth dilution	URM 4889	-	Candida parapsilosis	inhibition	2048 µg/mL	0%
NCCCC[C@H](NC(=O)[C@@H](N)CCCCN)C(=O)N[C@@H](CCC(N)=O)C(=O)N[C@@H](CCCN=C(N)N)C(=O)O	-	ATCC 10231	-	Candida albicans	inhibition	100 µM	0%
C[C@@H]1C(=O)N(CCCCc2ccccc2)C(=O)[C@@H]1C	broth dilution / turbidity	CCC 134-2000	-	Candida lusitaniae	MIC	-	62.5 µg/mL
C/C(=N/O)C(Cl)(Cl)Cl	-	-	-	Candida lipolytica	MIC	-	3220 µM
CC1(C)O[C@H]2[C@H](O)[C@@H](N=[N+]=[N-])C=C(c3ccc(C=O)cc3)[C@H]2O1	broth dilution / turbidity	ATCC 10231	-	Candida albicans	inhibition	62.5 µg/mL	89.76%